Laboratory results published in article PMC10132805.

Target: endogenous clathrin (UniProt Q00610)

Nsp3 (EEEV) wt, full length, Flag-tagged F1774A; D1775A
response (PLA signals/cell): 30
